Results of unrelated studies side by side (data: NIAID ChemDB).

Common to all: host cell toxicity; cell line: CEM; endpoint: CC50

CCn is the concentration with n% toxicity to the cells.

| structure | method | value |
|---|---|---|
| CCCCCCCCCCCCCCCC(=O)Nc1ccn([C@H]2CC[C@@H](COP(=O)(O)OCC(COP(=O)(O)OC[C@H]3O[C@@H](n4cc(C)c(=O)[nH]c4=O)C[C@@H]3N=[N+]=[N-])OC(=O)CCCCCCCCCCCCCCC)O2)c(=O)n1 | XTT | >1 µM |
| Cc1cccc(C)c1N1C(=O)c2ccc(N)cc2C1=O |  | 61 µM |
| O=C1C(=O)c2ccccc2C(O)=C1C1=C(Br)C(=O)c2ccccc2C1=O | MTT | 5.2 µM |
| COP(=O)(OC)OP(=O)(OC)OP(=O)(OC)OC[C@H]1O[C@@H](n2ccc3c(N)nc(N)nc32)[C@](C)(F)[C@@H]1O |  | >10 µM |
| Fc1ccccc1C1SCc2nc3ncccc3n21 |  | >95.9 µM |
| NC(=O)CCNC(=O)c1ccccc1S | XTT | 741 µM |
| Oc1ccc(/C=C/c2ccc(O)c(O)c2)cc1O |  | 16.8 µM |
| COC(=O)[C@H](Cc1ccccc1)NC(=O)[C@H]1/C(=C/CO)O[C@@H]2CC(=O)N21 |  | >100 µg/mL |
| N#C/C(=C\c1cc(O)c(O)c(O)c1)C(=O)NCCCNC(=O)/C(C#N)=C/c1cc(O)c(O)c(O)c1 |  | 17.3 µM |
| CO[C@H]1N([C@H]2C=C[C@@H](CO)O2)C(=O)NC(=O)[C@]1(C)Cl | XTT | >1030 µM |
| O=C(O)CC[C@H](CC1CCCCC1)NC(=O)c1ccccc1SSc1ccccc1C(=O)N[C@H](CCC(=O)O)CC1CCCCC1 |  | 8.5 µM |
| COc1cccc2c1C(=O)C(C1=C(Cl)C(=O)c3ccccc3C1=O)=C(Cl)C2=O | MTT | 11 µM |
| Nc1c(S(=O)(=O)O)cc(S(=O)(=O)O)c2ccc(N=Nc3ccc(/C=C/c4ccc(N=Nc5ccc6c(S(=O)(=O)O)cc(S(=O)(=O)O)c(N)c6c5O)cc4S(=O)(=O)O)c(S(=O)(=O)O)c3)c(O)c12 |  | 67 µM |
| CCCCCCCCCCCCCC(=O)Oc1ccc(COP(=O)(OCc2ccc(OC(=O)CCCCCCCCCCCCC)cc2)OP(=O)(O)OC[C@@H]2C=C[C@H](n3cc(C)c(=O)[nH]c3=O)O2)cc1 |  | 134 µM |
| OC[C@H]1O[C@H](c2cc(Cl)c(F)cc2F)C[C@@H]1O |  | >250 µM |
| Nc1cc(O)c2cc(N=Nc3ccc(N=Nc4ccc(N=Nc5ccc6cc(S(=O)(=O)O)cc(S(=O)(=O)O)c6c5)c5ccccc45)c4cc(S(=O)(=O)O)ccc34)c(S(=O)(=O)O)cc2c1 |  | >97 µM |
| O=C(O)CC[C@H](NC(=O)c1ccccc1SSc1ccccc1C(=O)N[C@@H](CCC(=O)O)C(=O)O)C(=O)O |  | >100 µM |
| N#C/C(=C\c1ccc(O)c(O)c1)C(=O)NCCCCc1ccccc1 |  | 11.8 µM |
| Fc1cccc(F)c1C1SCc2nc3ncccc3n21 |  | >62 µM |
| O=C(O)C[C@@H](NC(=O)c1ccccc1SSc1ccccc1C(=O)N[C@H](CC(=O)O)C1CCCCC1)C1CCCCC1 |  | 76 µM |
| Nc1nc2c(ncn2[C@H]2C=C[C@@H](CO)C2)c(=O)[nH]1 |  | 189 µg/mL |
| COC1=C(C2=C(Cl)C(=O)c3ccccc3C2=O)C(=O)c2ccc3c(c2C1=O)C=C[C@@](C)(CCC=C(C)C)O3 | MTT | 5.4 µM |
| Nc1ccn(C2CC(CO)(CO)C2)c(=O)n1 |  | 10 µg/mL |
| CCc1cn([C@H]2C=C[C@@H](OCP(=O)(O)O)O2)c(=O)[nH]c1=O |  | >100 µg/mL |
| [N-]=[N+]=N[C@@H]1C[C@@H](n2cc(F)c(N)nc2=O)O[C@H]1CO | trypan blue | >100 µM |
| O=C1C(O)=C(C2=C(C3=C(O)C(=O)c4ccccc4C3=O)C(=O)c3ccccc3C2=O)C(=O)c2ccccc21 | MTT | 28 µM |
| Cc1cc(NS(=O)(=O)c2ccc(Nc3c4ccccc4nc4c(C(=O)Nc5ccc(S(=O)(=O)N=C(N)N)cc5)cccc34)cc2)no1 |  | >250 µM |
| CCCCC(=O)Oc1ccc(COP(=O)(OCc2ccc(OC(=O)CCCC)cc2)OP(=O)(O)OC[C@@H]2C=C[C@H](n3cc(C)c(=O)[nH]c3=O)O2)cc1 |  | 80 µM |
| O=S(=O)(O)c1ccc(N=Nc2ccc(N=Nc3ccc(/C=C/c4ccc(N=[N+]([O-])c5ccc(/C=C/c6ccc(N=Nc7ccc(N=Nc8ccc(S(=O)(=O)O)cc8)c8ccccc78)cc6S(=O)(=O)O)c(S(=O)(=O)O)c5)cc4S(=O)(=O)O)c(S(=O)(=O)O)c3)c3ccccc23)cc1 |  | >16 µM |
| C[C@]1(Br)C(=O)NC(=O)N([C@H]2C=C[C@@H](CO)O2)[C@@H]1N=[N+]=[N-] | XTT | 44.7 µM |
| CCCCCCCCCCCCC(Br)C(=O)OC[C@H]1O[C@@H](n2cc(C)c(=O)[nH]c2=O)CC1O |  | 18 µM |
| Cc1ccc2c(c1)C(=O)N(C13CC4CC(CC(C4)C1)C3)C2=O |  | >336 µM |
| O=c1[nH]c(=O)n([C@H]2C=C[C@@H](OCP(=O)(O)O)O2)cc1Cl |  | >100 µg/mL |
| COC(=O)C(NC(=O)c1ccccc1SSc1ccccc1C(=O)NC(C(=O)OC)C(=O)OC)C(=O)OC |  | >100 µM |
| COc1ccc2c(c1)C(=O)C(I)=C(C1=C(O)c3ccccc3C(=O)C1=O)C2=O | MTT | 7.5 µM |
| Clc1ccccc1C1SCc2nc3ncccc3n21 |  | 83.9 µM |
| Nc1ccn([C@@H]2C[C@@H](F)[C@H](CO)O2)c(=O)n1 |  | >100 µM |
| CCCCCCCCCC(=O)Oc1ccc(COP(=O)(OCc2ccc(OC(=O)CCCCCCCCC)cc2)OP(=O)(O)OC[C@@H]2C=C[C@H](n3cc(C)c(=O)[nH]c3=O)O2)cc1 |  | 62 µM |
| Cc1cn([C@H]2C[C@H](O)[C@@H](COC(=O)CCCCCCCCCCBr)O2)c(=O)[nH]c1=O |  | 54 µM |
| NC(=O)C[C@H](NC(=O)c1ccccc1SSc1ccccc1C(=O)N[C@@H](CC(N)=O)C(N)=O)C(N)=O |  | 21 µM |
| CO[C@H]1N([C@H]2C=C[C@@H](CO)O2)C(=O)NC(=O)[C@]1(C)I | XTT | 66 µM |
| O=c1[nH]c(=O)n([C@@H]2C[C@@H](F)[C@H](CO)O2)cc1Cl |  | >100 µM |
| N#C/C(=C\c1ccc(O)c(O)c1)C(=O)NCCCCCCCCCCNC(=O)/C(C#N)=C/c1ccc(O)c(O)c1 |  | 2.7 µM |
| O=C1c2ccc(Cl)cc2C(=O)N1C12CC3CC(CC(C3)C1)C2 |  | 110 µM |
| Fc1cccc(C2SCc3nc4ncccc4n32)c1 |  | >132 µM |
| Nc1nc(Cl)c2ncn([C@@H]3O[C@H](CO)C[C@@H]3F)c2n1 |  | >50 µM |
| O=C1c2ccc([N+](=O)[O-])cc2C(=O)N1C12CC3CC(CC(C3)C1)C2 |  | >304 µM |
| CCSCCCCCCCCCCC(=O)OC[C@H]1O[C@@H](n2cc(C)c(=O)[nH]c2=O)C[C@@H]1O |  | 41 µM |
| Nc1nc2c(ncn2[C@H]2CC[C@@H](CO)O2)c(=O)[nH]1 |  | >10 µM |
| O=C(NC(C(=O)O)c1ccccc1)c1ccccc1SSc1ccccc1C(=O)NC(C(=O)O)c1ccccc1 |  | >100 µM |
| Cc1cccc(C)c1N1C(=O)c2ccccc2C1=O |  | 220 µM |
| CC(C)=CCC[C@]1(C)C=Cc2c(ccc3c2C(=O)C(O)=C(C2=C(C4=C(O)C(=O)c5c(ccc6c5C=C[C@@](C)(CCC=C(C)C)O6)C4=O)C(=O)c4c(ccc5c4C=C[C@@](C)(CCC=C(C)C)O5)C2=O)C3=O)O1 | MTT | 22 µM |
| CC(C)(C)c1ccccc1Sc1c(O)cc(-c2ccc(OCc3cccnc3)cc2)oc1=O |  | 16.5 µM |
| N#C/C(=C\c1ccc(O)c(O)c1)C(=O)c1ccc(O)c(O)c1 |  | 36.2 µM |
| O=[N+]([O-])c1ccc(/C=C/c2ccc(N=Nc3ccc(/C=C/c4ccc([N+](=O)[O-])cc4S(=O)(=O)O)c(S(=O)(=O)O)c3)cc2S(=O)(=O)O)c(S(=O)(=O)O)c1 |  | >112 µM |
| Cc1cn([C@H]2C[C@H](O)[C@@H](COC(=O)CCCCCCCCCCN=[N+]=[N-])O2)c(=O)[nH]c1=O |  | 32 µM |
| Cc1cccc(C)c1N1C(=O)c2ccc(O)cc2C1=O |  | 74 µM |

Repeating the final 4 entries:

structure | method | value
N#C/C(=C\c1ccc(O)c(O)c1)C(=O)c1ccc(O)c(O)c1 |  | 36.2 µM
O=[N+]([O-])c1ccc(/C=C/c2ccc(N=Nc3ccc(/C=C/c4ccc([N+](=O)[O-])cc4S(=O)(=O)O)c(S(=O)(=O)O)c3)cc2S(=O)(=O)O)c(S(=O)(=O)O)c1 |  | >112 µM
Cc1cn([C@H]2C[C@H](O)[C@@H](COC(=O)CCCCCCCCCCN=[N+]=[N-])O2)c(=O)[nH]c1=O |  | 32 µM
Cc1cccc(C)c1N1C(=O)c2ccc(O)cc2C1=O |  | 74 µM

Blank or dashed fields: not listed here. Conditions beyond the fields shown may differ between rows.